Values quoted from earlier work in US11819508B2 (priority 2020, dated 2023).

System: Covid-19
Conditions: inhaled interferon

B1: IFN β-1a: cytokine in the interferon family, inhaled (protein, UniProt P01574 22-187, looked up)
Interferon beta: MSYNLLGFLQRSSNFQCQKLLWQLNGRLEYCLKDRMNFDIPEEIKQLQQFQKEDAALTIYEMLQNIFAIFRQDSSSTGWNETIVENLLANVYHQINHLKTVLEEKLEKEDFTRGKLMSSLHLKRYYGRILHYLKAKEYSHCAWTIVRVEILRNFYFINRLTGYLRN
- recovery of subjects hospitalized with Covid-19 (speed ambulation, decrease risk of developing severe disease, reduce breathlessness): improve recovery
